A mixed list of measured activities; the numbers were collected in NIAID ChemDB.

Shared fields: whole-cell or culture tests; organism: Mycobacterium avium intracellulare; read-out: MIC

Lines come from different laboratories, so protocols vary.

| structure | strain | read by | setting | value |
|---|---|---|---|---|
| CN(C)CCCN1c2ccccc2Sc2ccc(Cl)cc21 | R 8411 | - | - | 12.5 µg/mL |
| CC(C)=CCc1cc(O)c(O)c(CC=C(C)C)c1-c1oc2c(CC=C(C)C)c(O)cc(O)c2c(=O)c1O | ATCC 23068 | - | - | >100 µg/mL |
| CCS/C(N)=N/N=C/c1ccccc1O | CNCT D39/93 | - | - | 125 µM |
| CCN1C(NNC(=O)c2cnccn2)=NS(=O)(=O)c2ccccc21 | ATCC 13950 | - | - | 8 µg/mL |
| CC[C@@H](C)[C@H](OC(=O)/C=C/c1ccccc1)[C@H](C)[C@H](O)C/C=C/C=C/C(N)=O | - | - | - | 100 µg/mL |
| CC(C)N1C(NNC(=O)c2cnccn2)=NS(=O)(=O)c2ccccc21 | ATCC 13950 | - | - | >16 µg/mL |
| CCCC(C)S/C(N)=N/N=C/c1ccc2ccccc2n1 | CNCT D39/93 | - | - | 63 µM |
| CSc1nc(N)c2c(n1)NC(c1ccc(Cl)cc1)CC(c1ccc3c(c1)OCO3)=N2 | MNT1408 | MTT / broth dilution / absorbance | clinical isolate | >32 µg/mL |
| COc1ccc2c(c1)N(C[C@H](C)CN(C)C)c1ccccc1S2 | R 7313 | - | - | 25 µg/mL |
| CC1COc2c(N3CCN(C)CC3)c(F)cc3c(=O)c(C(=O)O)cn1c23 | 23 strains | - | - | >10 µg/mL |
| COC(=O)C1[C@@H](OC(=O)CC(CCCCCCCCCCC(C)C)OC(=O)CC(C)CC(=O)OC2OC(C)C(OC)C(OC)C2OC)CN(C)C([C@@H](OC2O[C@H](CN)[C@@H](O)[C@H]2O)C2OC(n3ccc(=O)[nH]c3=O)[C@H](O)[C@@H]2O)C(=O)N1C | E-1 NIHJ-1618 | - | - | 0.78 µg/mL |
| CN1C(NNC(=O)c2ccc(Cl)nc2)=NS(=O)(=O)c2ccccc21 | ATCC 13950 | - | - | >16 µg/mL |
| C[C@@H]1CN(c2c(F)c(N)c3c(=O)c(C(=O)O)cn(C4CC4)c3c2F)C[C@H](C)N1 | ATCC 13950 | - | - | 0.3 µg/mL |
| CC[C@H]1OC(=O)[C@H](C)[C@@H](O[C@H]2C[C@@](C)(OC)[C@@H](OC(C)=O)[C@H](C)O2)[C@H](C)[C@@H](OC2O[C@H](C)C[C@H](N(C)C)[C@H]2OC(=O)NCCCCCCCCCCCCCCN(C)C)C(C)(O)C[C@@H](C)/C(=N\OCCCC2CCCCC2)[C@H](C)[C@@H](O)[C@]1(C)O | 20073 | - | - | 0.78 µg/mL |
| CN1C(NNC(=O)c2cnccn2)=NS(=O)(=O)c2ccc(Cl)cc21 | ATCC 13950 | - | - | >16 µg/mL |
| CCC(C)S/C(N)=N/N=C/c1ccncc1 | CNCT D39/93 | - | - | 125 µM |
| CO[C@H]1/C=C/O[C@@]2(C)Oc3c(C)c(O)c4c(=O)c(c5oc6cc(N7CCN(CC(C)C)CC7)cc(=O)c6nc5c4c3=C2O)NC(=O)/C(C)=C\C=C\[C@H](C)[C@H](O)[C@@H](C)[C@@H](O)[C@@H](C)[C@H](OC(C)=O)[C@@H]1C | N-260 | - | - | 0.025 µg/mL |
| CCCCCNC(=O)O[C@H]1C(O[C@@H]2[C@@H](C)[C@H](O[C@H]3C[C@@](C)(OC)[C@@H](OC(C)=O)[C@H](C)O3)[C@@H](C)C(=O)O[C@H](CC)[C@@](C)(O)[C@H](O)[C@@H](C)/C(=N/OCCCC3CCCCC3)[C@H](C)CC2(C)O)O[C@H](C)C[C@@H]1N(C)C | 20073 | - | - | 0.2 µg/mL |
| COc1c(O)c2c(=O)cc(OC)c3c4c(OC)cc(=O)c5c(O)c(OC)c6c(c(c1CC(C)(O)C6C(C)=O)c23)c54 | - | - | - | 22.5 µg/mL |
| CC1COc2c(N3CCN(C)CC3)c(F)cc3c(=O)c(C(=O)O)cn1c23 | 38 strains | - | - | ≥5 µg/mL |
| CCCCCCCCCCCCCCN(C)C(=O)O[C@H]1C(O[C@@H]2[C@@H](C)[C@H](O[C@H]3C[C@@](C)(OC)[C@@H](OC(C)=O)[C@H](C)O3)[C@@H](C)C(=O)O[C@H](CC)[C@@](C)(O)[C@H](O)[C@@H](C)/C(=N/OCCCC3CCCCC3)[C@H](C)CC2(C)O)O[C@H](C)C[C@@H]1N(C)C | 20067 | - | - | 0.2 µg/mL |
| CS/C(N)=N/N=C/c1ccc2ccccc2n1 | CNCT D39/93 | - | - | >1000 µM |
| CCCCCCCCCCCCCCCCSc1ncnc2ccccc12 | D 39/93 | - | - | >1000 µM |
| CCCCS/C(N)=N/N=C/c1ccc2ccccc2n1 | CNCT D39/93 | - | - | 63 µM |
| CCN1C(NNC(=O)c2cccnc2)=NS(=O)(=O)c2ccccc21 | ATCC 13950 | - | - | >16 µg/mL |
| NC[C@@H]1O[C@H](O[C@H]2[C@@H](O)[C@H](O[C@@H]3[C@@H](O)[C@H](N)C[C@H](N)[C@H]3O[C@H]3O[C@H](CO)[C@@H](O)C[C@H]3N)O[C@@H]2CO)[C@H](N)[C@@H](O)[C@@H]1O[C@H]1O[C@H](CO)[C@@H](O)[C@H](O)[C@@H]1O | 10 strains | - | - | 200 µg/mL |
| CCNC(=O)O[C@H]1C(O[C@@H]2[C@@H](C)[C@H](O[C@H]3C[C@@](C)(OC)[C@@H](OC(C)=O)[C@H](C)O3)[C@@H](C)C(=O)O[C@H](CC)[C@@](C)(O)[C@H](O)[C@@H](C)/C(=N/OCCCC3CCCCC3)[C@H](C)CC2(C)O)O[C@H](C)C[C@@H]1N(C)C | 20075 | - | - | 12.5 µg/mL |
| CSc1nc(N)c2c(n1)NC(c1ccc(C(F)(F)F)cc1)CC(c1ccc3c(c1)OCO3)=N2 | MNT1408 | MTT / broth dilution / absorbance | clinical isolate | >32 µg/mL |
| CCCCCCCS/C(N)=N/N=C/c1ccc2ccccc2n1 | CNCT D39/93 | - | - | 16 µM |
| Nc1nc(N)c2c(n1)NC(c1ccc3c(c1)OCO3)CC(c1ccc(F)cc1)=N2 | MNT1408 | MTT / broth dilution / absorbance | clinical isolate | >32 µg/mL |
| O=C(NNC1=NS(=O)(=O)c2ccccc2N1c1ccccc1)c1cccnc1 | ATCC 13950 | - | - | >16 µg/mL |
| OCNC(=S)c1cnccn1 | ATCC 13950 | - | - | 100 µg/mL |
| CO[C@H]1/C=C/O[C@@]2(C)Oc3c(C)c(O)c4c(O)c(c(/C=N/N5CCN(C6CCCC6)CC5)c(O)c4c3C2=O)NC(=O)/C(C)=C\C=C\[C@H](C)[C@H](O)[C@@H](C)[C@@H](O)[C@@H](C)[C@H](OC(C)=O)[C@@H]1C | 1296 | - | - | 0.25 µg/mL |
| CN1C(NNC(=O)c2cccnc2)=NS(=O)(=O)c2ccc(Cl)cc21 | ATCC 13950 | - | - | >16 µg/mL |
| OCCN1CCN(CCC=C2c3ccccc3Sc3ccc(Cl)cc32)CC1 | R 8656 | - | - | 12.5 µg/mL |
| CN1C(NNC(=O)c2cccnc2)=NS(=O)(=O)c2ccccc21 | ATCC 13950 | - | - | >16 µg/mL |
| CC(=O)NC[C@H]1CN(c2ccc(N3CCN(c4ccc([N+](=O)[O-])s4)CC3)c(F)c2)C(=O)O1 | 356/97 | - | - | 0.25 µg/mL |
| CCCCNC(=O)O[C@H]1C(O[C@@H]2[C@@H](C)[C@H](O[C@H]3C[C@@](C)(OC)[C@@H](OC(C)=O)[C@H](C)O3)[C@@H](C)C(=O)O[C@H](CC)[C@@](C)(O)[C@H](O)[C@@H](C)/C(=N/OCCCC3CCCCC3)[C@H](C)CC2(C)O)O[C@H](C)C[C@@H]1N(C)C | 20073 | - | - | 0.2 µg/mL |

Blank or dashed fields: not listed here.